Laboratory results as given in PMC6375636, “Monotherapy with a low-dose lipopeptide HIV fusion inhibitor maintains long-term viral suppression in rhesus macaques” (PLoS Pathogens, 2019).
Like-named read-outs stand apart in the source and are kept apart here. Peptide text beside a SMILES is read from it. * marks the point of attachment. Stearoyl = CCCCCCCCCCCCCCCCCC(=O)*

Key:
[1] = tested on: HIV-1NL4-3(D36G) pseudovirus; format: cell-based; settings: IC50 on NL4-3D36G relative to NL4-3D36G (reference)
Procedure: (§1) The inhibitory activities of inhibitors against HIV-1 pseudoviruses and replication-competent isolates were measured as described previously. Briefly, HIV-1 pseudoviruses were generated via the cotransfection of HEK293T cells with an Env-expressing plasmid and a backbone plasmid that encodes Env-defective, luciferase-expressing HIV-1 genome (pSG3Δenv). Viral stocks of replication-competent HIV-1 isolates were generated by transfecting viral molecular clones into HEK293T cells. […] Inhibitors were prepared in 3-fold dilutions, mixed with 100 TCID50 of a virus, and then incubated for 1 h at room temperature. […] Luciferase activity was measured as described above.

HIV-1NL4-3 = assay: In vitro selection of resistant HIV-1 mutants in MT-4 cells; format: cell-based; settings: passage on MT-4 cells with 2-fold increases in inhibitor concentration
Procedure: Cells were incubated at 37°C with 5% CO2 until an extensive cytopathic effect was observed. Culture supernatants were harvested and used for next passage on fresh MT-4 cells with a 2-fold increase in inhibitor concentrations.

NL4-3N43K pseudovirus = format: cell-based, HIV-1; settings: IC50 on NL4-3N43K relative to NL4-3D36G
Procedure: as §1

[2] = tested on: NL4-3G36S/V38M pseudovirus; format: cell-based, HIV-1; settings: IC50 on NL4-3G36S/V38M relative to NL4-3D36G
Procedure: as §1

NL4-3WT pseudovirus = format: cell-based, HIV-1; settings: IC50 on NL4-3WT relative to NL4-3D36G
Procedure: as §1

[3] = tested on: NL4-3V38A/N42T pseudovirus; format: cell-based, HIV-1; settings: for Fold change: IC50 on NL4-3V38A/N42T relative to NL4-3D36G
Procedure: as §1

[4] = tested on: NL4-3I37T/N43K pseudovirus; format: cell-based, HIV-1; settings: IC50 on NL4-3I37T/N43K relative to NL4-3D36G
Procedure: as §1

NL4-3V38A pseudovirus = format: cell-based, HIV-1; settings: IC50 on NL4-3V38A relative to NL4-3D36G
Procedure: as §1

NL4-3I37T pseudovirus = format: cell-based, HIV-1; settings: IC50 on NL4-3I37T relative to NL4-3D36G
Procedure: as §1

NL4-3Q40H pseudovirus = format: cell-based, HIV-1; settings: IC50 on NL4-3Q40H relative to NL4-3D36G
Procedure: as §1

NL4-3V38M pseudovirus = format: cell-based, HIV-1; settings: IC50 on NL4-3V38M relative to NL4-3D36G
Procedure: as §1

[5] = Cytotoxicity, CellTiter 96 AQueous One Solution cell proliferation assay; format: cell-based; settings: 37°C for 2 days, absorbance 490 nm, read-out: 50% cytotoxic concentration (CC50)
Procedure: The cytotoxicity of LP-80 on TZM-bl, MT-4, HEK293T, and human PBMC was measured using a CellTiter 96 AQueous One Solution cell proliferation assay (Promega). In brief, 50-μl volumes of LP-80 at graded concentrations were added to cells, which were seeded on a 96-well tissue culture plate (1 × 10^4 cells per well). After incubation at 37°C for 2 days, 20 μl of CellTiter 96 AQueous One solution reagent was pipetted into each well and further incubated at 37°C for 2 h. The absorbance was measured at 490 nm using a SpectraMax M5 microplate reader.

[6] = human PBMC, 1 × 10^4 cells per well
[7] = human, MT-4 cells, MT-4, 1 × 10^4 cells per well
[8] = human, HEK293T, 1 × 10^4 cells per well
[9] = human, TZM-bl, 1 × 10^4 cells per well

SMILES | Fold change [1] | Outcome of in vitro selection of resistant mutants (HIV-1NL4-3) | Fold change (NL4-3N43K pseudovirus) | Fold change [2] | Fold change (NL4-3WT pseudovirus) | Fold change [3] | IC50 ([3]; NL4-3V38A/N42T, T-20 resistant, mean ± SD of 3 assays in triplicate) [µM] | Fold change [4] | Fold change (NL4-3V38A pseudovirus) | Fold change (NL4-3I37T pseudovirus) | Fold change (NL4-3Q40H pseudovirus) | Fold change (NL4-3V38M pseudovirus) | CC50 at 48 h [5, 6] [µM] | CC50 at 48 h [5, 7] [µM] | CC50 at 48 h [5, 8] [µM] | CC50 at 48 h [5, 9] [µM] | A/G (after 1st treatment (DPI 263), before (DPI 191) 2.03 ± 0.48) | LDH (after 1st treatment (DPI 263), before (DPI 191) 290 ± 62.25) [U/L] | A/G (after 2nd treatment (DPI 508), before (DPI 325) 2.31 ± 0.23) | GLU (after 2nd treatment (DPI 508), before (DPI 325) 3.69 ± 0.62) [mmol/L]
CCCCCCCCCCCCCCCCCC(=O)NCCCC[C@H](NC(=O)[C@H](CCC(=O)O)NC(=O)[C@H](CC(C)C)NC(=O)[C@H](CCCCN)NC(=O)[C@H](CCCCN)NC(=O)[C@H](CC(C)C)NC(=O)[C@H](CCC(=O)O)NC(=O)[C@H](CCC(=O)O)NC(=O)[C@H](CCC(=O)O)NC(=O)[C@H](CC(N)=O)NC(=O)[C@H](CCCCN)NC(=O)[C@H](CCCCN)NC(=O)[C@H](CCC(N)=O)NC(=O)[C@H](CCC(N)=O)NC(=O)[C@H](CCC(=O)O)NC(=O)[C@H](CCC(=O)O)NC(=O)[C@H](C)NC(=O)[C@H](CCCCN)NC(=O)[C@H](CCCCN)NC(=O)[C@H](CC(C)C)NC(=O)[C@H](CC(C)C)NC(=O)[C@H](CCC(=O)O)NC(=O)[C@H](CCC(=O)O)NC(=O)[C@@H](NC(=O)[C@H](CCCCN)NC(=O)[C@H](CCC(N)=O)NC(=O)[C@H](CCC(=O)O)NC(=O)[C@H](Cc1c[nH]c2ccccc12)NC(C)=O)[C@@H](C)CC)C(N)=O [LP-80] (Ac-WEQKIEELLKKAEEQQKKNEEELKKLEK(Stearoyl)-NH2) | 1 | difficult to passage the virus in the presence of LP-80 inhibitor | 125 | 35 | 1 | 625 | 0.00125 ± 1e-05 | 1895 | 115 | 25 | 65 | 65 | 37.4 | 218 | 72.2 | 62.3 | 1.50 ± 0.2 | 443.4 ± 85.91 | 2 ± 0.4 | 3.74 ± 0.85
CCCCCCCCCCCCCCCC(=O)NCCCC[C@H](NC(=O)[C@H](CCC(=O)O)NC(=O)[C@H](CC(C)C)NC(=O)[C@H](CCCCN)NC(=O)[C@H](CCCCN)NC(=O)[C@H](CC(C)C)NC(=O)[C@H](CCC(=O)O)NC(=O)[C@H](CCC(=O)O)NC(=O)[C@H](CCC(=O)O)NC(=O)[C@H](CC(N)=O)NC(=O)[C@H](CCCCN)NC(=O)[C@H](CCCCN)NC(=O)[C@H](CCC(N)=O)NC(=O)[C@H](CCC(N)=O)NC(=O)[C@H](CCC(=O)O)NC(=O)[C@H](CCC(=O)O)NC(=O)[C@H](C)NC(=O)[C@H](CCCCN)NC(=O)[C@H](CCCCN)NC(=O)[C@H](CC(C)C)NC(=O)[C@H](CC(C)C)NC(=O)[C@H](CCC(=O)O)NC(=O)[C@H](CCC(=O)O)NC(=O)[C@@H](NC(=O)[C@H](CCCCN)NC(=O)[C@H](CCC(N)=O)NC(=O)[C@H](CCC(=O)O)NC(=O)[C@H](Cc1c[nH]c2ccccc12)NC(C)=O)[C@@H](C)CC)C(N)=O [LP-52, reference compound] |  |  |  |  |  |  |  |  |  |  |  |  | 78.5 | 108 | 80.5 | 85.8 |  |  |  | 
CCCCCCCCCCCCCCCCCC(=O)NCCCC[C@H](NC(=O)[C@H](CCC(=O)O)NC(=O)[C@H](CC(C)C)NC(=O)[C@H](CCCCN)NC(=O)[C@H](CCCCN)NC(=O)[C@H](CC(C)C)NC(=O)[C@H](CCC(=O)O)NC(=O)[C@H](CCC(=O)O)NC(=O)[C@H](CCC(=O)O)NC(=O)[C@H](CC(N)=O)NC(=O)[C@H](CCCCN)NC(=O)[C@H](CCCCN)NC(=O)[C@H](CCC(N)=O)NC(=O)[C@H](CCC(N)=O)NC(=O)[C@H](CCC(=O)O)NC(=O)[C@H](CCC(=O)O)NC(=O)[C@H](C)NC(=O)[C@H](CCCCN)NC(=O)[C@H](CCCCN)NC(=O)[C@H](CC(C)C)NC(=O)[C@H](CC(C)C)NC(=O)[C@H](CCC(=O)O)NC(=O)[C@H](CCC(=O)O)NC(=O)[C@@H](NC(C)=O)[C@@H](C)CC)C(N)=O [LP-90] | 1 |  | 1683.33 | 790 | 10 | 16396.67 |  | 15443.33 | 2750 | 170 | 1390 | 1440 |  |  |  |  |  |  |  | 
